# PSTVd loop 1 mutant pool in Nicotiana benthamiana

From the data files of Wu et al. 2024, doi:10.1371/journal.ppat.1012142.

PSTVd intermediate strain, loop 1: wild type CCUCGG, pool pattern CNNNNG; 5' to 3', with the closing base pair.

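A pool of all variants was put on leaves of three Nicotiana benthamiana plants. Samples came from the inoculated region at 5 days, the leaf margin at 10 and upper systemic leaves at 12.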

Values are reads per thousand in the sample; higher means more abundant, 0 means not found. Each value is the mean of three plants. "Pool" is the share in the plasmid pool used as inoculum, on the same scale. The inoculated region was read from the minus strand, the other sites from the plus strand. With 32,791-60,834 reads a sample, very low values are single reads. The authors trace changes outside the varied positions to PCR and sequencing errors or to mutation in the plant; presence does not show that a variant is infectious alone. Wild type was 20.1 per thousand in the pool and the most common sequence in every sample (inoculated region 197, 219, 222; leaf margin 828, 823, 779; systemic leaves 914, 907, 857).

sequence,pool,inoculated region,leaf margin,systemic leaves
AGCAAG,0.0131,0,0,0
AUAUGG,0.0131,0,0,0
AUCCGG,0.0131,0,1.26,0.405
CAAACG,3.67,2.87,0.00704,0.00548
CAAAGG,3.30,2.73,0.0168,0
CAAGUG,4.02,2.80,0.0141,0.0164
CAAUAG,3.51,2.73,0.0102,0
CAAUUG,3.73,2.68,0.00704,0.0110
CACAAG,3.39,2.79,0,0
CACACG,3.73,2.75,0.0168,0
CACCCG,4.55,2.73,0.0415,0.00548
CACGGG,4.18,2.91,0.0211,0
CACUGA,0.0131,0,1.22,0.460
CACUUG,4.26,3.00,0.00663,1.24
CAGCGG,3.69,2.75,0.0133,0
CAGUAG,4.64,2.78,0.00704,0.0115
CAGUCG,3.89,3.12,0,0.00548
CAUCUG,3.69,2.88,0.0102,0.00677
CAUUUG,3.05,2.52,0.0102,0
CCAAAG,3.53,2.76,0.00704,0
CCAGGG,3.17,2.76,0.0172,0
CCAGUG,3.42,2.59,1.24,0.351
CCCCAG,4.13,3.04,0.00704,0
CCCCUG,3.92,2.73,0.0168,0
CCGACG,3.73,2.83,0.00704,0.00548
CCUCUC,0.0131,0,0,0
CCUGCG,4.10,2.77,0.0102,0
CCUUUG,3.55,2.84,0.00704,0
CGAAAG,3.77,2.74,0.00663,0
CGACUG,3.42,2.91,0.0102,0.0110
CGGACG,4.14,2.96,1.24,0.466
CGGAGG,3.51,2.63,0.00704,0
CGGAUG,3.94,2.83,0,0.0177
CGGCCG,3.99,2.63,0,0.00548
CGGCUG,5.39,3.08,0.0102,0.0334
CGGGAG,4.80,2.71,0,0.0115
CGGGGG,3.71,2.53,0.0102,0.00677
CGGUCG,4.13,2.70,10.5,0.384
CGGUUG,4.53,2.78,0.0137,0.0329
CGUCUG,3.25,2.86,0,0
CGUGGG,3.93,2.73,0.0172,0.0164
CGUUAG,5.26,2.84,0.00663,0.0493
CGUUUG,4.09,2.66,0.00704,0
CUAACG,3.34,2.83,0.0172,0
CUACGG,3.22,2.51,0.0168,0
CUAGAG,3.48,2.77,0.0242,0
CUAUAG,3.73,2.87,0.00704,0.00548
CUAUCG,3.92,2.59,1.29,0.433
CUCAAG,3.47,2.87,0.00704,0.0169
CUCACG,3.69,2.54,0.00704,0
CUCAGG,3.39,2.90,0,0
CUCGAG,3.39,2.90,0,0
CUCGCG,5.11,2.71,0.0102,0.0219
CUGAUG,4.11,2.76,0,0.00548
CUGGCA,0.0131,0,1.26,0.422
CUGGGG,5.10,2.99,0,0.0389
CUGUCG,4.16,2.89,0.0274,0.00548
CUUCGG,3.99,2.97,5.87,7.56
CUUGGG,3.46,2.85,0,0
GCUCGG,0.407,0.775,0.590,3.34
GCUCGU,0.0131,0,0,0.0182
GUGGUG,0.0131,0,0,0

Excerpt, the final 5 entries:

| sequence | pool | inoculated region | leaf margin | systemic leaves |
|---|---|---|---|---|
| CUUCGG | 3.99 | 2.97 | 5.87 | 7.56 |
| CUUGGG | 3.46 | 2.85 | 0 | 0 |
| GCUCGG | 0.407 | 0.775 | 0.590 | 3.34 |
| GCUCGU | 0.0131 | 0 | 0 | 0.0182 |
| GUGGUG | 0.0131 | 0 | 0 | 0 |